Results of unrelated studies side by side (data: NIAID ChemDB).

All rows: tests in culture; organism: Sindbis virus; method: cytopathic effect; endpoint: EC50

Conditions beyond the fields shown may differ between rows. ECn is the concentration giving n% inhibition of infection, replication or growth.

{"smiles": "Nc1nccc2c1ncn2[C@@H]1C=C(CO)[C@@H](O)[C@H]1O", "cell line": "VERO", "result": ">400 µg/mL"}
{"smiles": "Nc1nccc2c1ncn2[C@@H]1C[C@H](CO)[C@@H](O)[C@H]1O", "cell line": "VERO", "result": ">100 µg/mL"}
{"smiles": "Nc1ncnc2c1ncn2C[C@H](O)CO", "cell line": "VERO", "result": ">400 µg/mL"}
{"smiles": "Cc1cn([C@H]2C[C@@H](CO)[C@H](O)C2)c(=O)[nH]c1=O", "cell line": "VERO", "result": ">400 µg/mL"}
{"smiles": "OC[C@H]1O[C@@H](n2cnc3cc(Cl)c(Cl)cc32)[C@@H](O)[C@@H]1O", "cell line": "HeLa", "result": ">200 µg/mL"}
{"smiles": "C[C@H](Cn1cnc2c(N)ncnc21)OCP(=O)(O)O", "result": ">525 µM"}
{"smiles": "Cc1cn([C@H]2C[C@H](O)[C@@H](CO)[C@@H]2C)c(=O)[nH]c1=O", "cell line": "VERO", "result": ">400 µg/mL"}
{"smiles": "Nc1nc2c(ncn2C[C@H]2CC[C@@H](CO)C2)c(=O)[nH]1", "cell line": "VERO", "result": ">200 µg/mL"}
{"smiles": "Nc1ncnc2c1ncn2C1CC(CO)[C@@H](O)[C@H]1O", "cell line": "VERO", "result": "≥4 µg/mL"}
{"smiles": "Nc1nc(Cl)c2ncn(C[C@H]3CC[C@@H](CO)C3)c2n1", "cell line": "VERO", "result": ">40 µg/mL"}
{"smiles": "Nc1cc(OCCOCP(=O)(O)O)nc(N)n1", "result": ">190 µM"}
{"smiles": "O=[N+]([O-])c1cc(Cl)c(Cl)cc1[N+](=O)[O-]", "cell line": "HeLa", "result": ">4 µg/mL"}
{"smiles": "Nc1ncnc2c1ccn2[C@@H]1C[C@H](CO)[C@@H](O)[C@H]1O", "cell line": "VERO", "result": "≥10 µg/mL"}
{"smiles": "Nc1ncnc2c([C@H]3C[C@H](O)[C@@H](CO)O3)[nH]nc12", "cell line": "VERO", "result": "400 µg/mL"}
{"smiles": "Clc1cc2nc[nH]c2cc1Cl", "cell line": "HeLa", "result": ">10 µg/mL"}
{"smiles": "Cc1cn([C@@H]2C[C@H](CO)[C@@H](O)C2)c(=O)[nH]c1=O", "cell line": "VERO", "result": ">100 µg/mL"}
{"smiles": "O[C@H]1[C@@H](O)COC(n2cnc3cc(Cl)c(Cl)cc32)[C@@H]1O", "cell line": "HeLa", "result": ">400 µg/mL"}
{"smiles": "C/C=C/Cc1cn([C@@H]2O[C@H](CO)[C@@H](O)[C@H]2O)c2ncnc(N)c12", "cell line": "VERO", "result": "40 µg/mL"}
{"smiles": "Nc1ncnc2c1ncn2CCOCP(=O)(O)O", "result": ">185 µM"}
{"smiles": "Nc1ncnc2c1ccn2[C@@H]1O[C@H](CO)[C@@H](O)[C@H]1O", "cell line": "VERO", "result": ">0.1 µg/mL"}
{"smiles": "Nc1ncnc2c1ncn2C[C@H](O)CO", "cell line": "VERO", "result": ">400 µg/mL"}
{"smiles": "Nc1nccc2c1ncn2[C@@H]1C[C@H](CO)[C@@H](O)[C@H]1O", "cell line": "VERO", "result": ">400 µg/mL"}
{"smiles": "Nc1nccc2c1ncn2[C@@H]1O[C@H](CO)[C@@H](O)[C@H]1O", "cell line": "VERO", "result": "≥40 µg/mL"}
{"smiles": "Nc1ccn([C@@H]2C[C@H](CO)[C@@H](O)[C@H]2O)c(=O)n1", "cell line": "VERO", "result": "0.7 µg/mL"}
{"smiles": "Nc1ncnc2c1ncn2[C@@H]1C[C@H](CO)[C@@H](O)C1", "cell line": "VERO", "result": ">100 µg/mL"}
{"smiles": "Nc1nc(N)c2ncn(C[C@H]3CC[C@@H](CO)C3)c2n1", "cell line": "VERO", "result": ">200 µg/mL"}
{"smiles": "Nc1nccc2c1ncn2[C@@H]1C[C@H](CO)[C@@H](O)[C@H]1O", "cell line": "VERO", "result": "200 µg/mL"}
{"smiles": "OC[C@H]1O[C@@H](n2cnc3cc(Cl)c(Cl)cc32)[C@@H](O)[C@H]1O", "cell line": "HeLa", "result": ">100 µg/mL"}

A second listing of 2 rows from above:

smiles,cell line,result
Nc1nccc2c1ncn2[C@@H]1C[C@H](CO)[C@@H](O)[C@H]1O,VERO,>400 µg/mL
Cc1cn([C@H]2C[C@@H](CO)[C@H](O)C2)c(=O)[nH]c1=O,VERO,>400 µg/mL